We go through one compound from PMC10989010, “A panel of janus kinase inhibitors identified with anti-inflammatory effects protect mice from lethal influenza virus infection” (Antimicrobial Agents and Chemotherapy, 2024).

The experiment concerns IL-8. The experiment can be described thus: U937 cell-based anti-inflammatory assay for influenza virus infection, IL-8 production (AlphaLISA). The settings on record: Homo sapiens, U-937, 72 h, read-out: IC50 IL-8. A general note: Alpha assays give light when donor and acceptor beads are brought close together.

The term IC50 denotes the concentration at which inhibition is half-maximal.

With `CC[C@@](C)(Nc1ccnc(-c2c[nH]c3ncccc23)n1)C(=O)NCC(F)(F)F` [Decernotinib], the IC50 was determined as 20 nM.
